According to PMC12316777:
The exact form of at least one protein or probe is not confirmed. At least one verdict rests on a figure or table, not on a statement of the authors.

Molecular target: nsp13 (helicase) (SARS-CoV-2) (UniProt P0DTD1)
Assay: EMSA
Details: recombinant protein, protein details: His6, removed with thrombin

TTTTTTTTTTTTTTTTTTTTCGAGCACCGCTGCGGCTGCACC / GGTGCAGCCGCAGCGGTGCTCG [nsp13 dsDNA substrate (FL-Cy3/RL)]
binding result (no Au(I), 2 uM nsp13, 100 nM dsDNA): binds | binding result: binds
